Data reported in article PMC9176691, “Design, synthesis and biological evaluation of novel diosgenin–benzoic acid mustard hybrids with potential anti-proliferative activities in human hepatoma HepG2 cells” (Journal of Enzyme Inhibition and Medicinal Chemistry, 2022).

Test system: GES-1 cells
Assay: MTT cytotoxicity assay, normal GES-1
Format: cell-based, human
Conditions: read-out: IC50 GES-1, 48 h treatment, normal gastric epithelial cells, average ± SD of three independent experiments

**Q.** For O=C(O)c1ccc(N(CCCl)CCCl)cc1, which IC50 is on record?
**A.** > 100 µM
